Data as given in PubChem BioAssay AID1259414 (Drosophila RNAi Screening Center, 2018)

Aim: 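Fly genes that alter Wolbachia amount inside host cells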 (primary screen)
Cells: Drosophila JW18 cells infected with Wolbachia
Knock-down reagent: long dsRNA against Drosophila genes, 0.25 µg dsRNA per well of a 384-well plate
Time to read-out: 5 days
Challenge: cells persistently infected with Wolbachia before knock-down; no added drug
Read-out: 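Imaged fluorescence in situ signal for Wolbachia 23S rRNA per DAPI-counted host cell, given as a robust z-score within each plate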
Scale: Wolbachia per cell robust z: higher = more Wolbachia per host cell than the plate typical
Rule for the call: 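Active if absolute robust z reaches 1.5 in two or more of three replicates, leaving out multi- or no-target dsRNAs, genes unexpressed in JW18 and A1 wells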
The screen tested about 24,000 reagents; below is an unselected part of those with a known target gene and a result. In the full data, about 1,210 (5%) were called active. 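Inactive calls also include excluded dsRNAs with several or no targets, genes unexpressed in JW18, and well A1, regardless of score.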 Unmarked entries are inactive. Names joined by + are all predicted targets of the reagent.

gene knocked down	amplicon	Wolbachia per cell robust z, rep 1	Wolbachia per cell robust z, rep 2	Wolbachia per cell robust z, rep 3
CG12177	DRSC19437	0.308	0.647	0.113
CG12177	DRSC21524	-0.911	0.607	-1.14
CG12177	DRSC29474	-0.891	0.311	-0.612
Ugt49B2	DRSC16049	-3.83	-0.329	-1.76
Ugt49B2	DRSC24548	0.138	-0.35	-0.828
CG30054	DRSC05354	0.0624	-1.16	-0.271
CG18746	DRSC15383	-1.7	-0.438	0.132
Ir94d	DRSC21568	-0.418	0.617	0.808
CG14316	DRSC14795	0.474	-3.15	0.103
crol	DRSC03514	0.618	0.835	-0.546
crol	DRSC21348	0.46	-1.23	0.367
crol	DRSC26800	-7.94 (active)	0.721	-1.81
CG33506	DRSC05981	0.049	-1.12	0
HSPC300	DRSC22880	-1.27 (active)	-2.13	-2.77
Cht4	DRSC04603	0.447	0.739	0.00916
CG33060	DRSC09939	-1.56	0.289	-0.75
CG2898	DRSC18238	-2.94 (active)	-1.83	-2.6
CG11380	DRSC23223	-3.5	0.802	0.868
CG11380	DRSC29190	0.0781	-0.00896	-1.63
BHD	DRSC11017	-2.97	-0.56	-1.17
BHD	DRSC22833	-1.12	-1.36	-2.69
BHD	DRSC27469	-0.247	0.199	-0.872
CG3894	DRSC01762	1.07	-0.382	-0.303
CG3894	DRSC04012	-1.4	-0.709	-0.704
CG3894	DRSC04429	-4.41 (active)	-3.63	-0.152
CG15097	DRSC06526	0.423	0.549	-0.0262
CG15097	DRSC27170	0.563	1.53	0.639
CG31122	DRSC16286	-0.314	0.0813	-1.32
CG31122	DRSC23448	0.385	0.778	-0.558
CG31249	DRSC16248	0.946	0.455	0.871
Imp	DRSC18861	-0.758	0.0147	1.26
Imp	DRSC20255	0.446	-1.75	-0.196
Imp	DRSC21907	-0.146	-0.302	-1.08
Imp	DRSC40690	-2.49	-0.78	-1.18
CG45067 + CG45066	DRSC08414	-0.726	0.431	-0.659
Catsup	DRSC03288	0.394	-0.652	-0.48
Catsup	DRSC25727	-0.0709	0.327	0.0658
CG15456	DRSC20527	0.891	0.241	-0.61
obst-A	DRSC20543	0.505	0.483	-1.48

Continued; the last 2 above are carried over.
gene knocked down	amplicon	Wolbachia per cell robust z, rep 1	Wolbachia per cell robust z, rep 2	Wolbachia per cell robust z, rep 3
CG15456	DRSC20527	0.891	0.241	-0.61
obst-A	DRSC20543	0.505	0.483	-1.48
Pez	DRSC03397	-0.101	-1.45	-0.0773
Pez	DRSC27921	0.00431	0.803	1.02
Grd	DRSC11178	-0.214	-0.849	0.547
Grd	DRSC28513	0.315	-0.0902	0.573
CG13676	DRSC10035	-0.189	0.247	0.162
Prp6	DRSC10724	0.673	0.584	0.69
Prp6	DRSC21773	-0.413	0.422	0.816
Mcm5	DRSC16735	-0.192	0.62	-1.23
Mcm5	DRSC29514	-0.269	0.0218	-0.304
CG14829	DRSC10199	-0.288	0.601	0.416
phr6-4	DRSC03589	-0.485	-0.579	0.178
phr6-4	DRSC26873	1.39	1.71	0.38
Ir85a	DRSC14382	1.05	0.305	0.426
Ir85a	DRSC29077	0.343	-0.907	-0.733
CG18011	DRSC06697	0.938	0.602	-2.06
CG18011	DRSC06706	-0.278	0.669	0.452
Sol1	DRSC15263	-0.0371	-7.83	-3.95
Sol1	DRSC15271	-1.15	0.593	-0.58
Sol1	DRSC15681	-0.215	-0.185	-0.429
LRR	DRSC06444	-0.726	-0.193	-0.2
LRR	DRSC24790	1.99	0.675	0.175
CG7115	DRSC02000	-1.25	0.463	0.265
CG7115	DRSC29878	1.22	0.372	0.609
Obp58d	DRSC04162	0.931	1.2	1.17
CG14174	DRSC10175	0.0312	-0.365	-4.91
CG17633	DRSC02631	1.23	0.644	-4.7
CG17633	DRSC29709	-1.03	1.09	-0.152
SmydA-2	DRSC10296	-0.59	-1.5	0.0411
promL	DRSC08733	1.07	0.912	0.266
